A mixed list of measured activities; the numbers were collected in NIAID ChemDB.

All rows: whole-cell or culture tests; species: Mycobacterium tuberculosis

MIC bound comes from a single tested concentration. Conditions beyond the fields shown may differ between rows. MIC50, MIC90 and the like: level of inhibition, or share of isolates inhibited. ECn: concentration that inhibits the pathogen or its effect by n%. a–b is a range or a potency band. Inhibition is in % at the dose shown (toxicity tests: loss of growth or viability). Blank or dashed fields: not listed here.

SMILES	measure	dose	cell line	read by	strain or isolate	value
CC(C)C[C@@H]1NC(=O)[C@H](C)NC(=O)[C@@H](CCCN)NC(=O)[C@H](CC(N)=O)NC(=O)[C@H](C(C)C)NC(=O)[C@@H](CC(C)C)NC1=O	MIC100			broth dilution / resazurin	H37Rv	>80 µM
N#C/C(=N\NC(=O)c1cccc(C(=O)N/N=C(\C#N)c2ccccc2Cl)n1)c1ccccc1Cl	inhibition	12.5 µg/mL		BACTEC	H37Rv	2%
Fc1ccccc1CSc1ncn[nH]1	MIC				My 331/88	500 µM
O=C(NNC1=NS(=O)(=O)c2ccccc2N1c1ccccc1)c1ccncc1	MIC				Clinical isolates drug-resistant	>16 µg/mL
CC(C)C[C@@H]1NC(=O)[C@H](Cc2c[nH]c3ccccc23)NC(=O)[C@@H](CCCN)NC(=O)[C@H](CC(N)=O)NC(=O)[C@H](C(C)C)NC(=O)[C@@H](C)NC1=O	MIC100			broth dilution / resazurin	H37Rv	>80 µM
O=C(NNC1=NS(=O)(=O)c2ccccc2N1c1ccccc1)c1cccnc1	MIC				Clinical isolates drug-resistant	>16 µg/mL
CCN(CC)CCNc1ccc(C)c2sc3ccc(O)cc3c(=O)c12.I	inhibition	12.5 µg/mL		BACTEC	H37Rv	100%
COc1c(N2C[C@@H]3CCCN[C@@H]3C2)c(F)cc2c(=O)c(C(=O)O)cn(C3CC3)c12	MIC50				23 isolates	0.062 µg/mL
CC(C)C[C@@H]1NC(=O)[C@H](Cc2c[nH]c3ccccc23)NC(=O)[C@@H](CCCN)NC(=O)[C@H](CC(N)=O)NC(=O)[C@H](C(C)C)NC(=O)[C@@H](Cc2ccc(Cl)cc2)NC1=O	MIC100			broth dilution / resazurin	H37Rv	1.9 µM
Clc1ccccc1CSc1ncn[nH]1	MIC				My 331/88	1000 µM
C1CCNC1.S=C(S)N1CCCC1	MIC bound			BACTEC	H37Rv	≤12.5 µg/mL
COc1c(N2CCNC(C)C2)c(F)cc2c(=O)c(C(=O)O)cn(C3CC3)c12	MIC90				23 isolates	0.031 µg/mL
CO[C@H]1/C=C/O[C@@]2(C)Oc3c(C)c(O)c4c(O)c(cc(OCC(=O)Nc5ccc(Br)cc5)c4c3C2=O)NC(=O)/C(C)=C\C=C\[C@H](C)[C@H](O)[C@@H](C)[C@@H](O)[C@@H](C)[C@H](OC(C)=O)[C@@H]1C	MIC				H37Rv	0.005 µg/mL
N=c1nc(N)nc2c3ccccc3nnn12	inhibition	12.5 µg/mL		BACTEC	H37Rv	5%
C=CC(C)(O)CC/C=C(\C)CCCC(C)(O)CCCC(C)(O)CCCC(C)(O)CCCC(C)(O)CCCC(C)(O)CCCC(C)(O)CCCC(C)(O)CCCC(C)(O)CCCC(C)(O)CCC=C(C)C	MIC				H37Rv	>128 µg/mL
Nc1ccc(S(=O)(=O)c2ccc(N)cc2)cc1	inhibition	16 µg/mL				0%
Cc1ccc(Nc2ccc(Nc3ccc(C)cc3)c3c2C(=O)c2cc(Cl)c(Cl)cc2C3=O)cc1	inhibition	12.5 µg/mL		BACTEC	H37Rv	5%
Cn1cnc2c(NC(=O)c3ccccc3F)nc(Cl)cc21	MIC99			visual reading	H37Rv	6.25 µM
O=C(NNC1=NS(=O)(=O)c2ccccc2N1c1ccccc1)c1cnccn1	MIC				Clinical isolates drug-sensitive	8–16 µg/mL
Cn1cnnc1SCc1cccc(Br)c1	MIC				My 331/88	1000 µM
Cc1ccc(N=NC2Sc3nc4ccccc4n3C2=O)cc1	inhibition	12.5 µg/mL		BACTEC	H37Rv	35%
CC(C)[C@@H](C)/C=C/[C@@H](C)[C@H]1CCC2C3=C[C@H](O)[C@@]4(O)C[C@@H](O)CC[C@]4(C)C3CC[C@@]21C	MIC				H37Rv	11 µg/mL
NNC(=O)c1ccncc1	MIC				10 strains (isoniazid- rifampin-susceptible)	0.125 µg/mL
CCC(C)C1NC(=O)[C@H](CC(C)C)NC(=O)[C@H](Cc2c[nH]c3ccccc23)NC(=O)[C@@H](CCCN)NC(=O)[C@H](CC(N)=O)NC(=O)[C@H](C(C)C)NC1=O	MIC100			broth dilution / resazurin	H37Rv	>80 µM
CN1C(NNC(=O)c2cccnc2)=NS(=O)(=O)c2ccc(Cl)cc21	MIC				Clinical isolates drug-resistant	4–8 µg/mL
COc1ccc2c(c1)[n+]([O-])c(/C(C)=N/NC(=O)c1ccccc1O)c(C)[n+]2[O-]	MIC				TAC-R	6.3 µg/mL
Brc1ccc(CSc2ncn[nH]2)cc1	MIC				My 331/88	250 µM
CCCN1C(=O)CC(NC(C)=O)C1=O	MIC			BACTEC	H37Rv	≥12.8 µg/mL
O=[N+]([O-])c1ccc(-n2cnc([N+](=O)[O-])c2)cc1	inhibition	6.25 µg/mL			H37Rv	0%
CN1C(NNC(=O)c2cnccn2)=NS(=O)(=O)c2ccccc21	MIC				Clinical isolates drug-resistant	0.5–2 µg/mL
Cc1ccccc1NC(=O)Nc1nc(Cl)cc2c1ncn2C	MIC99			visual reading	H37Rv	25 µM
CC(C)[C@@H](C)/C=C/[C@@H](C)[C@H]1CCC2C3=C(CC[C@@]21C)[C@@]1(C)CC[C@H](O)CC12OC2[C@@H]3O	MIC				H37Rv	45 µg/mL
COC(=O)c1cc(NC(=O)Nc2cc(C(=O)OC)n(C)n2)nn1C	inhibition	6.25 µg/mL		resazurin	H37Rv	-10%
CCCCN(CC)C(=O)COc1cc2c(O)c3c(O)c(C)c4c(c13)C(=O)[C@@](C)(O/C=C/[C@H](OC)[C@@H](C)[C@@H](OC(C)=O)[C@H](C)[C@H](O)[C@H](C)[C@@H](O)[C@@H](C)/C=C/C=C(/C)C(=O)N2)O4	MIC				H37Rv	0.18 µg/mL
NCC[C@H](O)C(=O)N[C@@H]1C[C@H](N)[C@@H](O[C@H]2O[C@H](CN)[C@@H](O)[C@H](O)[C@H]2O)[C@H](O)[C@H]1O[C@H]1O[C@H](CO)[C@@H](O)[C@H](N)[C@H]1O	MIC				Isolate CKN64-20 (rrs A1401G mutation)	>64 µg/mL
Nc1nc(-c2ccccc2)c(N=Nc2ccccc2[N+](=O)[O-])s1	MIC bound			BACTEC	H37Rv	>6.25 µg/mL
CO[C@H]1/C=C/O[C@@]2(C)Oc3c(C)c(O)c4c(O)c(cc(OCC(=O)N5C(C)COCC5C)c4c3C2=O)NC(=O)/C(C)=C\C=C\[C@H](C)[C@H](O)[C@@H](C)[C@@H](O)[C@@H](C)[C@H](OC(C)=O)[C@@H]1C	MIC				H37Rv	0.09 µg/mL
Cn1cnc2c(NS(=O)(=O)Cc3ccccc3)nc(Cl)cc21	MIC99			visual reading	H37Rv	>25 µM
C=CC(C)(O)CC/C=C(\C)CCC(O)C(C)(O)CCCC(C)(O)CCCC(C)(O)CCCC(C)(O)CCCC(C)(O)CCCC(C)(O)CCCC(C)(O)CCCC(C)(O)CCCC(C)(O)CCC=C(C)C	MIC				H37Rv	>128 µg/mL
CC(C)C[C@@H]1NC(=O)[C@H](Cc2c[nH]c3ccccc23)NC(=O)[C@@H](CCCN)NC(=O)C(CC(N)=O)N(C)C(=O)[C@H](C(C)C)NC(=O)[C@@H](CC(C)C)N(C)C1=O	MIC100			broth dilution / resazurin	H37Rv	>80 µM
Cn1cn[nH]c1=S	MIC				My 331/88	>1000 µM
CCN(CC)CC.Nc1ncnc2c1ncn2[C@@H]1OC(COS(=O)(=O)NC(=O)CCCCC2SCC3NC(=O)NC32)[C@@H](O)[C@H]1O	MIC			broth dilution	H37Rv	1.56 µM
O=C1CCCCCCCCCCCC(=O)OCO1	inhibition	12.5 µg/mL		BACTEC	H37Rv	-6%
NNC(=O)c1ccncc1	MIC			resazurin	H37Ra	0.05 µg/mL
Cc1cc2oc(=O)cc(-c3ccccc3)c2c(C)c1-c1ccc(CO)cc1	EC99			turbidity	H37Rv	2.6 µM
CCN(CC)c1ccc(N=C2C=C(C(=O)Nc3ccc(S(C)(=O)=O)cc3)C(=O)c3ccccc32)c(C)c1	MIC bound			BACTEC	H37Rv	>12.5 µg/mL
Cn1cnc2c(NC(=O)c3ccccc3Cl)nc(Cl)cc21	MIC99			visual reading	H37Rv	25 µM
CO[C@@H]1C=C2C3CC[C@H]([C@H](C)/C=C/C(C)C(C)C)[C@@]3(C)CCC2[C@@]2(C)CC[C@H](O)C[C@]12O	MIC				H37Rv	36 µg/mL
CN1C(NNC(=O)c2ccncc2)=NS(=O)(=O)c2ccccc21	MIC				Clinical isolates drug-resistant	>16 µg/mL
O=C(O)C1=C/C(=C(\c2ccccc2)c2cc(C(=O)[O-])c([O-])c3ccccc23)c2ccccc2C1=O.[Na+].[Na+]	MIC bound			BACTEC	H37Rv	>12.5 µg/mL
Cn1cnc2c(NC(=O)Nc3cccc(C#N)c3)nc(Cl)cc21	MIC99			visual reading	H37Rv	>25 µM
Fc1ccc(CSc2ncn[nH]2)cc1F	MIC				My 331/88	>1000 µM
CCC(C)N(C(=O)COc1cc2c(O)c3c(O)c(C)c4c(c13)C(=O)[C@@](C)(O/C=C/[C@H](OC)[C@@H](C)[C@@H](OC(C)=O)[C@H](C)[C@H](O)[C@H](C)[C@@H](O)[C@@H](C)/C=C/C=C(/C)C(=O)N2)O4)C(C)CC	MIC				H37Rv	0.3 µg/mL
Cc1ccc(-c2n[nH]c(=O)n2-n2c(C)ccc2C)cc1	MIC				11.146	5.16 µg/mL
COc1ccc2c3c1OC1CC(N4CCCC4)=C(c4c([N+](=O)[O-])cc([N+](=O)[O-])cc4[N+](=O)[O-])C4(O)C(C2)N(C)CCC314	inhibition	12.5 µg/mL		BACTEC	H37Rv	-1%
Cn1cnc2c(NS(=O)(=O)c3cccc(Br)c3)nc(Cl)cc21	MIC99			visual reading	H37Rv	12.5 µM
N[C@@H]1CONC1=O	MIC				H37Rv	<10 µg/mL
CCCc1cc(=O)oc2c3c(c4c(c12)OC(C)(C)C=C4)O[C@@H](C)[C@H](C)[C@@H]3O	inhibition	12.5 µg/mL		BACTEC	H37Rv	99%
CC(C)C[C@H]1NC(=O)[C@H](C)NC(=O)[C@H](Cc2c[nH]c3ccccc23)NC(=O)[C@@H](CCCN)NC(=O)[C@H](CC(N)=O)NC(=O)[C@H](C(C)C)NC1=O	MIC100			broth dilution / resazurin	H37Rv	>80 µM
CC(C)N1C(NNC(=O)c2cnccn2)=NS(=O)(=O)c2ccccc21	MIC				Clinical isolates drug-sensitive	>16 µg/mL
Cc1nc([N+](=O)[O-])cn1-c1ccc(Cl)cc1	inhibition	6.25 µg/mL	VERO		H37Rv	99%
Cc1ccc(-c2c(C)cc3oc(=O)cc(C)c3c2C)cc1	EC90			turbidity	H37Rv	>250 µM
CC(C)CC1C(=O)N[C@H](CC(C)C)C(=O)N(C)C(C(C)C)C(=O)N[C@@H](CC(N)=O)C(=O)N[C@H](CCCN)C(=O)N[C@@H](Cc2c[nH]c3ccccc23)C(=O)N1C	MIC100			broth dilution / resazurin	H37Rv	>80 µM
O=CN1CCN(c2ccc([N+](=O)[O-])c3no[n+]([O-])c23)CC1	inhibition	6.25 µg/mL		resazurin	H37Rv	51%
Cc1cc2oc(=O)cc(-c3ccccc3)c2c(C)c1-c1ccncc1	EC99			turbidity	H37Rv	5.6 µM
CCN(CC)c1c(C)nnc2c3c(-c4ccccc4)c(-c4ccccc4)nnc3nn12	MIC bound			resazurin	H37Rv	>6.25 µg/mL
Cc1c(-c2ccc(CCO)cc2)ccc2oc(=O)cc(-c3ccccc3)c12	EC90			turbidity	H37Rv	70 µM
Nc1ccc2nc3ccc(N)cc3[n+](-c3ccccc3)c2c1	MIC		VERO	BACTEC	H37Rv	3.13 µg/mL
O=[N+]([O-])c1ccc(CSc2ncn[nH]2)c([N+](=O)[O-])c1	MIC				My 331/88	62.5 µM
O=S1(=O)CCNc2ccccc2O1	MIC bound			BACTEC	H37Rv	>12.5 µg/mL
Cn1cnnc1SCc1ccccc1	MIC				My 331/88	1000 µM
O=C(O)C1Cc2c([nH]c3ccccc23)C(C(=O)O)N1	inhibition	6.25 µg/mL		resazurin	H37Rv	-4%
Cc1nc([N+](=O)[O-])cn1-c1ccc(Br)cc1	MIC				H37Rv	>6.25 µg/mL

For reference, 7 entries again:

CC(C)CC1C(=O)N[C@H](CC(C)C)C(=O)N(C)C(C(C)C)C(=O)N[C@@H](CC(N)=O)C(=O)N[C@H](CCCN)C(=O)N[C@@H](Cc2c[nH]c3ccccc23)C(=O)N1C ; measure: MIC100 ; read by: broth dilution / resazurin ; strain or isolate: H37Rv ; value: >80 µM
O=C(NNC1=NS(=O)(=O)c2ccccc2N1c1ccccc1)c1cccnc1 ; measure: MIC ; strain or isolate: Clinical isolates drug-resistant ; value: >16 µg/mL
CC(C)C[C@@H]1NC(=O)[C@H](Cc2c[nH]c3ccccc23)NC(=O)[C@@H](CCCN)NC(=O)C(CC(N)=O)N(C)C(=O)[C@H](C(C)C)NC(=O)[C@@H](CC(C)C)N(C)C1=O ; measure: MIC100 ; read by: broth dilution / resazurin ; strain or isolate: H37Rv ; value: >80 µM
Cn1cnc2c(NS(=O)(=O)Cc3ccccc3)nc(Cl)cc21 ; measure: MIC99 ; read by: visual reading ; strain or isolate: H37Rv ; value: >25 µM
CO[C@H]1/C=C/O[C@@]2(C)Oc3c(C)c(O)c4c(O)c(cc(OCC(=O)Nc5ccc(Br)cc5)c4c3C2=O)NC(=O)/C(C)=C\C=C\[C@H](C)[C@H](O)[C@@H](C)[C@@H](O)[C@@H](C)[C@H](OC(C)=O)[C@@H]1C ; measure: MIC ; strain or isolate: H37Rv ; value: 0.005 µg/mL
C=CC(C)(O)CC/C=C(\C)CCC(O)C(C)(O)CCCC(C)(O)CCCC(C)(O)CCCC(C)(O)CCCC(C)(O)CCCC(C)(O)CCCC(C)(O)CCCC(C)(O)CCCC(C)(O)CCC=C(C)C ; measure: MIC ; strain or isolate: H37Rv ; value: >128 µg/mL
CC(C)N1C(NNC(=O)c2cnccn2)=NS(=O)(=O)c2ccccc21 ; measure: MIC ; strain or isolate: Clinical isolates drug-sensitive ; value: >16 µg/mL